Compound potency records, mixed from different reports. Data source: NIAID ChemDB in PubChem.

Shared fields: tests in culture; species: Semliki Forest virus; cell line: VERO; read-out: EC50

Rows are shuffled and stem from different studies. ECn is the concentration giving n% inhibition of infection, replication or growth. Blank or dashed fields: not listed here.

smiles | strain | read by | value
Nc1ncnc2c1ncn2[C@@H]1C=C(CO)[C@@H](O)[C@H]1O | - | cytopathic effect | ≥40 µg/mL
N#Cc1cncc([C@@H]2O[C@H](CO)[C@H](O)[C@@H]2O)c1 | - | cytopathic effect | ≥100 µg/mL
C=C(N=CC)c1nc(-c2cccc(OC)c2)n(C2O[C@H](CO)[C@@H](O)[C@H](O)[C@H]2O)n1 | - | cytopathic effect | >200 µg/mL
Nc1ncnc2c1ncn2[C@@H]1C=C(CCl)[C@@H](O)[C@H]1O | - | cytopathic effect | >40 µg/mL
NC1CSCON2CCc3c([nH]c4ccccc34)[C@H]12 | - | cytopathic effect | 0.2 µg/mL
CC=NC(=N)c1nc(-c2ccccc2)n(Cc2ccccc2)n1 | - | cytopathic effect | >4 µg/mL
CC1(C)OC2C(O1)[C@@H](COS(=O)(=O)NC(=O)OC1O[C@H](COCc3ccccc3)[C@@H](OCc3ccccc3)[C@H](OCc3ccccc3)[C@H]1OCc1ccccc1)O[C@H]2n1ncc(=O)[nH]c1=O | Sicilian | cytopathic effect | 246 µg/mL
Cc1ccn2c(C3OCCO3)cnc2c1 | - | - | >1000 µM
N#Cc1cncc([C@@H]2O[C@H](CO)[C@@H](O)[C@@H]2O)c1 | - | cytopathic effect | ≥100 µg/mL
CON1CCc2c([nH]c3ccccc23)[C@@H]1[C@@H](N)CSC | - | cytopathic effect | >40 µg/mL
Cc1cn(CCCC(O)CF)c(=O)[nH]c1=O | - | cytopathic effect | >400 µg/mL
Nc1ncnc2c1ncn2CC[C@H](O)CCO | - | cytopathic effect | >400 µg/mL
CC(=O)OC[C@H]1O[C@@H](n2ncc(=S)[nH]c2=S)C(OC(C)=O)C1OC(C)=O | Sicilian | cytopathic effect | 156 µg/mL
C=C(N=CC)c1nc(-c2cccc(C)c2)n(C2O[C@H](CO)[C@@H](O)[C@H](O)[C@H]2O)n1 | - | cytopathic effect | >100 µg/mL
O=c1cnn([C@@H]2O[C@H](CO)[C@@H](O)[C@H]2O)c(=S)[nH]1 | Sicilian | cytopathic effect | 1.65 µg/mL
CC(=O)OCCOCN1C(=O)C=CN(COCCO)S1(=O)=O | - | - | >400 µg/mL
O=c1ccn([C@@H]2O[C@H](CO)[C@](O)(C(F)(F)F)[C@H]2O)c(=O)[nH]1 | - | cytopathic effect | >400 µg/mL
CO[C@H](CO)[C@@H](O)CCn1cnc2c(N)ncnc21 | - | cytopathic effect | >400 µg/mL
OC[C@H]1O[C@H](c2cncc(Br)c2)[C@@H](O)[C@@H]1O | - | cytopathic effect | ≥100 µg/mL
Nc1ccn([C@@H]2C=C(CO)[C@@H](O)[C@H]2O)c(=O)n1 | - | cytopathic effect | 0.4 µg/mL
Cc1cn([C@H]2C/C(=N\O)[C@@H](CO)O2)c(=O)[nH]c1=O | - | cytopathic effect | >200 µg/mL
CC(=O)OC[C@H]1O[C@@H](n2ncc(=O)[nH]c2=O)[C@H](OC(C)=O)[C@@H]1OC(C)=O | Sicilian | cytopathic effect | 2.65 µg/mL
NC1CCCON2CCc3c([nH]c4ccccc34)[C@H]12 | - | cytopathic effect | 7 µg/mL
CC(=O)OCCOCN1C=CC(=O)N(COCCOC(C)=O)S1(=O)=O | - | - | >400 µg/mL
Nc1ncnc2c1ncn2[C@@H]1C=C(CF)[C@H](O)[C@H]1O | - | cytopathic effect | >200 µg/mL
Cc1cccn2c(C3SCCS3)cnc12 | - | - | >1000 µM
Nc1nc(Cl)c2ncn([C@H]3CO[C@@H](CO)C3)c2n1 | - | cytopathic effect | >400 µg/mL
Nc1ncnc2c1ncn2[C@@H]1C=C(CO)[C@@H](O)[C@H]1O | - | cytopathic effect | 7 µg/mL
C=C(N=CC)c1nc(-c2ccc(OC)cc2)n([C@@H]2O[C@H](CO)[C@@H](O)[C@H]2O)n1 | - | cytopathic effect | >100 µg/mL
Cc1cn(C(CF)CCCO)c(=O)[nH]c1=O | - | cytopathic effect | >400 µg/mL
Nc1nc2c(ncn2[C@H]2CO[C@@H](CO)C2)c(=O)[nH]1 | - | cytopathic effect | >400 µg/mL
CC=NC(=N)c1nc(-c2ccc(OC)cc2)n(Cc2ccccc2)n1 | - | cytopathic effect | >10 µg/mL
OC[C@H]1O[C@@H](c2cncc(Br)c2)[C@@H](O)[C@H]1O | - | cytopathic effect | ≥100 µg/mL
CCOP(=O)(NC(C)C(=O)OC)OC[C@H]1O[C@@H](n2ncc(=O)[nH]c2=O)C(O)C1O | Sicilian | cytopathic effect | 242 µg/mL
Nc1nccc2c1ncn2[C@@H]1C[C@H](CO)[C@@H](O)[C@H]1O | - | cytopathic effect | >400 µg/mL
CC(=O)OCCOCN1C=C(C#N)C(N)=NS1(=O)=O | - | - | >400 µg/mL
Cc1cn([C@@H]2O[C@H](CO)[C@](O)(C(F)(F)F)[C@H]2O)c(=O)[nH]c1=O | - | cytopathic effect | >200 µg/mL
Cc1cccn2c(C3OCCO3)cnc12 | - | - | >1000 µM
O=C1C=CN(COCCO)S(=O)(=O)N1COCCO | - | - | >400 µg/mL
Cc1ccn2c(C3OCCS3)cnc2c1 | - | - | >1000 µM
CC=NC(=N)c1nc(-c2cccc(C)c2)n(COCCO)n1 | - | cytopathic effect | >200 µg/mL
CO[C@H](CO)[C@@H](O)CCn1cc(C)c(=O)[nH]c1=O | - | cytopathic effect | >400 µg/mL
NC(=O)c1cncc([C@H]2O[C@H](CO)[C@H](O)[C@@H]2O)c1 | - | cytopathic effect | ≥100 µg/mL
CC=NC(=N)c1nc(-c2cccc(C)c2)n(Cc2ccccc2)n1 | - | cytopathic effect | >10 µg/mL
Nc1nc2c(ncn2CC[C@H](O)CCO)c(=O)[nH]1 | - | cytopathic effect | >400 µg/mL
C/C(O)=C1\C(=N)N(COCCO)S(=O)(=O)N=C1N | - | - | >400 µg/mL
C=C(N=CC)c1nc(-c2ccc(OC)cc2)n(C2O[C@H](CO)[C@@H](O)[C@H](O)[C@H]2O)n1 | - | cytopathic effect | >200 µg/mL

For reference, 5 entries again:

smiles | strain | read by | value
C=C(N=CC)c1nc(-c2ccc(OC)cc2)n([C@@H]2O[C@H](CO)[C@@H](O)[C@H]2O)n1 | - | cytopathic effect | >100 µg/mL
CO[C@H](CO)[C@@H](O)CCn1cnc2c(N)ncnc21 | - | cytopathic effect | >400 µg/mL
Cc1cccn2c(C3OCCO3)cnc12 | - | - | >1000 µM
NC1CCCON2CCc3c([nH]c4ccccc34)[C@H]12 | - | cytopathic effect | 7 µg/mL
Nc1nccc2c1ncn2[C@@H]1C[C@H](CO)[C@@H](O)[C@H]1O | - | cytopathic effect | >400 µg/mL